Structures can show the parent of a compound that is named as a salt.
Experiments:
[1] = system: HSV-2; experiment: In vivo treatment of genital cutaneous mucosa infected with HSV-2 (Example 8); conditions: 2 percent in 5 percent aqueous ethanol, topical
[2] = system: HSV-1; conditions: guinea pig, in vivo

CCCCOc1ccc(C(=O)CCN2CCCCC2)cc1 [Dyclonine . HCl, 4-n-butoxy-β-(1-piperidyl)-propiophenone hydrochloride]
irritation or other adverse effects [1]: No irritation or other adverse effects attributable to the dyclonine treatment were noted | skin irritation [2]: skin irritation attributed to the vehicle was observed in both placebo and dyclonine treated animals

— patent US4333941A, “Inhibition of enveloped viruses with phenyl ketones” (The Dow Chemical Company, priority 1977, dated 1982)
